Experimental data: PubChem BioAssay AID504761 (Drosophila RNAi Screening Center, 2011)

Test: 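Fly genes whose silencing reduces dengue virus type 2 infection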 (primary screen)
Cells: D.Mel-2 cells from Drosophila
Reagent: long dsRNA against Drosophila genes
Treatment: infection with dengue virus type 2; dose and infection time not stated
Measured: 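Per well on two replicate plates, imaging gave the percent of cells positive for viral envelope protein, ranked by infection, and a nuclear count of cells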
Scale: infection score: higher = more virus-infected cells; cell count: higher = more cells in the well
Call rule: 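Very low infection ranking in both replicate wells (chance probability at most 0.065), then a retest showing infection dropped 1.5-fold or more at p below 0.05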
Meaning of the calls: active = confirmed: knock-down lowers infection; inactive = not picked or not confirmed
The deposit covers about 22,000 reagents; this is an unselected part of those with a known target gene and a result. Of all reagents, 116 (0.52%) were called active. 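Calls depend on retest data that are not deposited; infection was ranked per plate without normalising between plates; the unit of the infection score is not given.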 Raw values vary from plate to plate and are shown uncorrected. A number with no mark means an inactive call. Not given: the amount of reagent, the time to read-out.

predicted target,PubChem SID,"infection score, replicate 1","infection score, replicate 2","cell count, replicate 1","cell count, replicate 2"
fra,SID104187413,19.1,12.2,6256,6829
Trmt6,SID104183064,11.2,8.12,5798,6477
Xbp1,SID104184345,5.75,8.58,6503,5839
Xbp1,SID104201319,1.59,2.76,5656,5975
Calr,SID104196406,2.42,5.32,5790,5510
Calr,SID104208435,10.8,9.37,5779,5487
CG15011,SID104188256,7.26,3.29,6291,6573
fuss,SID104196992,7.35,3.39,6191,6871
fuss,SID104201193,2.93,15.9,5486,4309
Cyp4ae1,SID104198247,1.75,2.28,6625,6052
Cyp4ae1,SID104206242,11.7,28.2,6921,2732
CG15263,SID104181766,1.88,7.65,6844,6925
CG15263,SID104205853,3.59,14.9,6654,6764
CG30458,SID104207179,15.1,7.47,5511,4473
Syn,SID104196668,3.75,,7021,457
Syn,SID104204992,3.5,3.32,6597,6031
CG14160,SID104189953,11.7,5.96,5645,5651
Nepl21,SID104193925,2.68,3.37,6260,6327
CG15071,SID104186296,1.42,4.54,5757,4822
CG15071,SID104206873,23.4,11,5524,3110
beat-Ic,SID104181316,0.92,0.55,6176,5807
beat-Ic,SID104183283,6.16,0.86,5767,6957
beat-Ic,SID104202770,5.53,4.53,6547,6541

Just “infection score, replicate 1”, for 2 of the entries above:
Xbp1 [SID104184345]: 5.75
Xbp1 [SID104201319]: 1.59
